Measured values from several laboratories, pooled; numbers as filed in NIAID ChemDB.

Shared fields: target-level tests

a–b is a range or a potency band.

structure | tested at | mutations | read by | protein | strain | agent | endpoint | value
C=C[C@H]1CC1(NC(=O)[C@@H]1C[C@@H](Oc2cc(-c3ccccc3)nc3cc(OC)ccc23)CN1C(=O)[C@@H](Nc1nc(CC)cs1)C(C)(C)C)C(=O)O | - | - | - | HCV NS3/NS4A protease | - | Hepatitis C virus | IC50 | 0.026 µM
C[C@@]1(O)[C@H](O)[C@@H](COP(=O)(O)OP(=O)(O)OP(=O)(O)O)O[C@@]1(C#N)c1ccc2c(N)ncnn12 | - | M289V | radiometric | Nonstructural protein 5B | 2a JFH-1 | Hepatitis C virus | fold resistance | 1.4
O=C(O)[C@H](Cc1ccccc1)N(Cc1cccc(Br)c1)C(=O)c1ccc(Cl)cc1Br | - | - | - | RNA-dependent RNA polymerase | - | Hepatitis C virus | IC50 | <5 µM
O=C(Nc1ccc2cn[nH]c2c1)c1cc(N2CCN(CCO)CC2)c(F)cc1F | 0.1 µg/mL | - | - | Reverse transcriptase | - | Hepatitis B virus | inhibition | 50%
C=C[C@H]1CC1(NC(=O)[C@@H]1C[C@@H](Oc2cc(-c3csc(NCC)n3)nc3cc(OC)ccc23)CN1C(=O)[C@@H](Nc1ccc(C(=O)N[C@H](C)C(C)(C)C)cc1)C(C)(C)C)C(=O)O | - | - | - | HCV NS3/NS4A protease | - | Hepatitis C virus | IC50 | 0.007 µM
O=C1/C(=C\c2cccc(OC(F)(F)F)c2)SC(=S)N1NS(=O)(=O)c1ccccc1 | - | - | - | NS5B polymerase | - | Hepatitis C virus | IC50 | ≤30 µM
O=c1cc(-c2ccccc2)oc2cc(O)c(O)cc12 | 20 µM | - | SYBR Green | Replicase complex | J4 | Hepatitis C virus | inhibition | 37.4%
C=CC(=O)NCC(=O)N1C[C@H](Oc2nccc3ccc(Br)cc23)C[C@H]1C(=O)N[C@]1(C(=O)NS(=O)(=O)C2CC2)C[C@H]1C=C | - | - | FRET | Nonstructural protein 3/4A | 1b D168A | Hepatitis C virus | IC50 | 0.755 µM
COC(=O)c1nc(-c2sccc2NC(=O)OCc2cc(Br)ccc2OC)[nH]c(=O)c1O | - | - | - | HCV polymerase | - | Hepatitis C virus | IC50 | <50 µM
CC[C@H]1CC1(NC(=O)[C@@H]1C[C@@H](Oc2cc(-c3ccccc3)nc3cc(OC)ccc23)CN1C(=O)[C@@H](Nc1ccc(C(=O)OC(C)(C)C)cc1)C(C)(C)C)C(=O)O | - | - | - | HCV NS3/NS4A protease | - | Hepatitis C virus | IC50 | 0.13 µM
O=C(Nc1ccc2cn[nH]c2c1)c1cc(N2CCNCC2)c(F)cc1F | 0.1 µg/mL | - | - | Reverse transcriptase | - | Hepatitis B virus | inhibition | 40%
CC1(C)OCC(N(C(=O)c2ccc(Cl)cc2Cl)c2cc(-c3ccccc3)sc2C(=O)O)CO1 | - | - | - | NS3 ATPase | - | Hepatitis C virus | IC50 | <5 µM
CC(C)(C)OC(=O)N[C@H](C(=O)N1C[C@H](OCc2cccc3ccccc23)C[C@H]1C(=O)NC1(C(=O)O)CC1)C1CCCCC1 | - | - | - | HCV NS3/NS4A protease | - | Hepatitis C virus | IC50 | 43 µM
O=C(Cc1ccc(F)c(C(F)(F)F)c1)Nc1ccsc1-c1nc(C(=O)O)c(O)c(=O)[nH]1 | - | - | - | HCV polymerase | - | Hepatitis C virus | IC50 | <25 µM
NN1C(=O)/C(=C\c2cc(F)c(F)cc2F)SC1=S | - | - | - | NS5B polymerase | - | Hepatitis C virus | IC50 | ≤30 µM
O=C(O)c1sc(-c2ccccc2)cc1NS(=O)(=O)c1cc(F)ccc1F | - | - | - | NS3 ATPase | - | Hepatitis C virus | IC50 | <5 µM
CN1CCN(c2cc(C(=O)Nc3ccc4[nH]ncc4c3)c(F)cc2F)CC1 | 0.1 µg/mL | - | - | Reverse transcriptase | - | Hepatitis B virus | inhibition | 56%
C=C[C@H]1CC1(NC(=O)[C@@H]1C[C@@H](Oc2nc(N3CCOCC3)nc3cc(OC)c(OC)cc23)CN1C(=O)[C@@H](Nc1ccc(C(=O)OC(C)(C)C)cc1)C(C)(C)C)C(=O)O | - | - | - | HCV NS3/NS4A protease | - | Hepatitis C virus | IC50 | 0.05 µM
O=C(Nc1ccc2[nH]ncc2c1)c1cc(NCc2ccccn2)c(F)cc1F | - | - | - | Reverse transcriptase | - | Hepatitis B virus | IC50 | 0.1–1 µg/mL
O=C(Nc1ccc(Oc2ccc(Cl)c3ccccc23)cc1)c1ccccc1NS(=O)(=O)c1ccc(Cl)cc1 | - | - | - | NS3 serine protease | - | Hepatitis C virus | IC50 | 6.5 µM
O=C(O)c1sc(-c2ccccc2)cc1N(C(=O)c1ccc(Cl)cc1Cl)C1CCCCC1 | - | - | - | NS3 ATPase | - | Hepatitis C virus | IC50 | <5 µM
O=C(Nc1ccsc1-c1nc(C(=O)O)c(O)c(=O)[nH]1)NC(CO)c1ccccc1 | - | - | - | HCV polymerase | - | Hepatitis C virus | IC50 | <25 µM
O=c1c(O[C@@H]2C[C@H](CO)[C@@H](O)[C@H](O)[C@H]2O)c(-c2ccc(O)c(O)c2)oc2cc(O)cc(O)c12 | 20 µM | - | SYBR Green | Replicase complex | J4 | Hepatitis C virus | inhibition | 25.9%
O=C(O)[C@H](Cc1ccccc1)N(Cc1cccc(-c2cc3ccccc3o2)c1)C(=O)Cc1ccc(Cl)cc1Cl | - | - | - | RNA-dependent RNA polymerase | - | Hepatitis C virus | IC50 | <5 µM
O=C(Nc1cscc1-c1nc(C(=O)O)c(O)c(=O)[nH]1)NS(=O)(=O)c1ccc2ccccc2c1 | - | - | - | HCV polymerase | - | Hepatitis C virus | IC50 | <25 µM
C=CCC(N)(B(O)O)C(=O)[C@H](CC(C)C)NC(=O)C(NC(=O)[C@H](Cc1cccc(C)c1)NC(=O)[C@H](CCC(=O)O)NC(=O)[C@H](CC(=O)O)NC(=O)CCC(=O)O)C(C)(C)C | - | - | - | NS3 serine protease | - | Hepatitis C virus | IC50 | 0.034 µM
O=C(O)c1sc(-c2ccccc2)cc1NS(=O)(=O)c1cnc(Cl)c(Br)c1 | - | - | - | NS3 ATPase | - | Hepatitis C virus | IC50 | >20 µM
O=C(O)[C@@H](Cc1ccccc1)N(Cc1ccc(-c2cc3ccccc3o2)cc1)C(=O)c1ccc(Cl)cc1Cl | - | - | - | RNA-dependent RNA polymerase | - | Hepatitis C virus | IC50 | <5 µM
O=C(Nc1ccc2[nH]ncc2c1)c1cc(N2CCC(O)CC2)c(F)cc1F | 0.01 µg/mL | - | - | Reverse transcriptase | - | Hepatitis B virus | inhibition | 22%
O=C(Nc1cccc(-c2nc(C(=O)O)c(O)c(=O)[nH]2)c1)c1cccc(OC(F)(F)F)c1 | - | - | - | HCV polymerase | - | Hepatitis C virus | IC50 | <100 µM
O=C(O)[C@H](Cc1ccccc1)N(Cc1ccc(-c2ccc(F)c(Cl)c2)o1)C(=O)c1ccc(Cl)cc1Cl | - | - | - | RNA-dependent RNA polymerase | - | Hepatitis C virus | IC50 | <5 µM
C=C[C@H]1CC1(NC(=O)[C@@H]1C[C@@H](Oc2cc(CN(C)c3ccccc3)nc3ccccc23)CN1C(=O)[C@@H](NC(=O)OC(C)(C)C)C(C)(C)C)C(=O)O | - | - | - | HCV NS3/NS4A protease | - | Hepatitis C virus | IC50 | 3 µM
N#Cc1ccc(/C=C2/SC(=S)N(N)C2=O)cc1 | - | - | - | NS5B polymerase | - | Hepatitis C virus | IC50 | ≤30 µM
C[C@@]1(O)[C@H](O)[C@@H](COP(=O)(O)OP(=O)(O)OP(=O)(O)O)O[C@H]1c1ccc2c(=O)[nH]c(N)nn12 | - | - | nucleotide incorporation | Nonstructural protein 5B | GT-1b Con1 | Hepatitis C virus | IC50 | 0.21 µM
CN(C(=O)c1ccc(C(F)(F)F)cc1)c1cc(-c2ccccc2)sc1C(=O)O | - | - | - | NS3 ATPase | - | Hepatitis C virus | IC50 | 5–20 µM
O=C(Nc1ccc2cn[nH]c2c1)c1cc(NCc2ccccn2)c(F)cc1F | 1 µg/mL | - | - | Reverse transcriptase | - | Hepatitis B virus | inhibition | 65%
O=C1NC(=S)S/C1=C\c1ccco1 | - | - | - | NS5B polymerase | - | Hepatitis C virus | IC50 | ≤30 µM
O=c1c(O)c(-c2ccccc2)oc2cc(O)cc(O)c12 | 20 µM | - | SYBR Green | Replicase complex | J4 | Hepatitis C virus | inhibition | 80.8%
CC(C)N(C(=O)C1CC[C@@H](C)C[C@@H]1C)c1cc(-c2ccccc2)sc1C(=O)O | - | - | - | NS3 ATPase | - | Hepatitis C virus | IC50 | <5 µM
C[C@@]1(O)[C@H](O)[C@@H](COP(=O)(O)OP(=O)(O)OP(=O)(O)O)O[C@H]1c1ccc2c(N)ncnn12 | - | - | nucleotide incorporation | Nonstructural protein 5B | GT5a | Hepatitis C virus | IC50 | 0.48 µM
CC1S/C(=C\c2ccc(Cl)c(Cl)c2)C(=O)N1S(=O)(=O)c1ccc(F)cc1 | - | - | - | NS5B polymerase | - | Hepatitis C virus | IC50 | ≤30 µM
CC(C)N(C(=O)C1CC[C@@H](C)CC1=O)c1cc(-c2ccccc2)sc1C(=O)O | - | - | - | NS3 ATPase | - | Hepatitis C virus | IC50 | <5 µM
O=C1CC(c2ccc(O)cc2)Oc2ccccc21 | 20 µM | - | SYBR Green | Replicase complex | J4 | Hepatitis C virus | inhibition | 9.3%
O=C(O)c1nc(-c2sccc2NC(=O)C2CCN(c3ncccn3)CC2)[nH]c(=O)c1O | - | - | - | HCV polymerase | - | Hepatitis C virus | IC50 | <25 µM
C[C@@]1(O)[C@H](O)[C@@H](COP(=O)(O)OP(=O)(O)OP(=O)(O)O)O[C@H]1c1cnn2c(N)ncnc12 | - | - | nucleotide incorporation | Nonstructural protein 5B | GT-1b Con1 | Hepatitis C virus | IC50 | 33 µM
Cc1ccc(S(=O)(=O)NC(=O)Nc2cscc2-c2nc(C(=O)O)c(O)c(=O)[nH]2)cc1 | - | - | - | HCV polymerase | - | Hepatitis C virus | IC50 | <25 µM
CC(C)N(C(=O)c1ccc(Cl)cc1Cl)c1cc(-c2cccc(C(F)(F)F)c2)sc1C(=O)O | - | - | - | NS3 ATPase | - | Hepatitis C virus | IC50 | <5 µM
O=C(O)c1nc(-c2nccs2)[nH]c(=O)c1O | - | - | - | HCV polymerase | - | Hepatitis C virus | IC50 | <100 µM
Cc1ccccc1S(=O)(=O)Nc1cc(-c2ccc(C(F)(F)F)cc2)sc1C(=O)O | - | - | - | NS3 ATPase | - | Hepatitis C virus | IC50 | <5 µM
CSCC[C@H](NC(=O)[C@H](CCC(=O)O)NC(=O)[C@@H](CC(=O)O)NC(C)=O)C(=O)N[C@@H](CCC(=O)O)C(=O)N[C@@H](CCC(=O)O)C(=O)N[C@@H](CS)C(=O)O | - | - | - | NS3 serine protease | - | Hepatitis C virus | IC50 | 1 µM

A second listing of 3 rows from above:

structure | tested at | mutations | read by | protein | strain | agent | endpoint | value
O=C(Nc1ccc2[nH]ncc2c1)c1cc(NCc2ccccn2)c(F)cc1F | - | - | - | Reverse transcriptase | - | Hepatitis B virus | IC50 | 0.1–1 µg/mL
O=C(O)c1nc(-c2nccs2)[nH]c(=O)c1O | - | - | - | HCV polymerase | - | Hepatitis C virus | IC50 | <100 µM
O=C(O)c1sc(-c2ccccc2)cc1NS(=O)(=O)c1cc(F)ccc1F | - | - | - | NS3 ATPase | - | Hepatitis C virus | IC50 | <5 µM

Inhibition is in % at the dose shown (toxicity tests: loss of growth or viability). Fold resistance: result on the changed form divided by that on wild type. Conditions beyond the fields shown may differ between rows. Blank or dashed fields: not listed here. ICn: concentration for n% inhibition.